# Source: US7611856B2 (priority 2003, dated 2009)
# Protein sequences, listed by entry. Tags and fused reporters are not part of them. Lines headed by an entry give the natural chain unless they say otherwise; changes in a name come on top.
# UniProt P0DPI0: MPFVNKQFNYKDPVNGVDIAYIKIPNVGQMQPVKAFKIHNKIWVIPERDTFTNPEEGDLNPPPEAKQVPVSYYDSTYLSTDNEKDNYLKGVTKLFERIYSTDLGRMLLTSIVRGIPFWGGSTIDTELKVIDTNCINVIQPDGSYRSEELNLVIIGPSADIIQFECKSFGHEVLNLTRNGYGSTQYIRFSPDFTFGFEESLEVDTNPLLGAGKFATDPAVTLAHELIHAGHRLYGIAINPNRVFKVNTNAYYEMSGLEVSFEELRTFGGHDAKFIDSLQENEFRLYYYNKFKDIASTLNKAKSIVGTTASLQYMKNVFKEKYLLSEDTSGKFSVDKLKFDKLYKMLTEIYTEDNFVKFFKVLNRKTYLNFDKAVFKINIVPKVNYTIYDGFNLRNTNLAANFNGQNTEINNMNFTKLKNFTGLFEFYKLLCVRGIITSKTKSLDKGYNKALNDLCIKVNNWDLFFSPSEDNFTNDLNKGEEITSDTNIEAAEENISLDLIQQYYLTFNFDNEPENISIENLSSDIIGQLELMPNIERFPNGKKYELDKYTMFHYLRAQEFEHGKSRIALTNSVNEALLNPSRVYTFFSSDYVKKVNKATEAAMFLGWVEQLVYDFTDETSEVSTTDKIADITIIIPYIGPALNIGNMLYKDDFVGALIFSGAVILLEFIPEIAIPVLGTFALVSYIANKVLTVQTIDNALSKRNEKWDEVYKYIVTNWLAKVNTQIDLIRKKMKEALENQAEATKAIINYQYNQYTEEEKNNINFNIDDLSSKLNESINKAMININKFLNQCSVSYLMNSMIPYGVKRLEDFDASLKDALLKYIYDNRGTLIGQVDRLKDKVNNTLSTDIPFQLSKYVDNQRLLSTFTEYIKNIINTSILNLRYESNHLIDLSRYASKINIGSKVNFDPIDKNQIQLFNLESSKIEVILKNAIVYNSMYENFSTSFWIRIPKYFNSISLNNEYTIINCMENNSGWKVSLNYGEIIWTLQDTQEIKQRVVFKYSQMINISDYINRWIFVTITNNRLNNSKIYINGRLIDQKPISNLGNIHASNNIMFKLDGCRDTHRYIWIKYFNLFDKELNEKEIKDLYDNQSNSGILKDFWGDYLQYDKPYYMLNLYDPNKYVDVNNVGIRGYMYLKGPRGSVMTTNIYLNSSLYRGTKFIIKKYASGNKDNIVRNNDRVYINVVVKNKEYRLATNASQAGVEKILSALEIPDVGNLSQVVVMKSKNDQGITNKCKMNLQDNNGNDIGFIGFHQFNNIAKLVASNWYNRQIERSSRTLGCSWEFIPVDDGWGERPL
# Molecular target: BoNT serotype A (Clostridium botulinum, UniProt P0DPI0)
# Assay: cleavage of peptide substrate by BoNT serotype A, MALDI-TOF-MS
substance,measurement,setting,value
Biotin-KGSNRTRIDEANQRATRMLGGK-biotin,cleavage of the peptide by BoNT serotype A,"digested for two hours, MALDI-TOF-MS",Two distinct peptide products were shown that were the result of the specific cleavage of the peptide
same,amount of BoNT-dependent cleavage products versus unmodified SNAP-25 based peptide,lysines 189 and 201 replaced with arginines,increase in the amount of BoNT-dependent cleavage products detected
